Measured values from ChEMBL document CHEMBL3046385, “Synthesis and bioactivity of novel 3-(1-hydroxyethylidene)-5-substituted-pyrrolidine-2,4-dione derivatives” (Chin Chem Lett, 2012).

Test system: Brassica rapa subsp. oleifera
Experiment: Herbicidal activity against Brassica rapa subsp. oleifera assessed as root inhibition

Work on `CCC(C)C1NC(=O)/C(=C(/C)O)C1=O` (stereo unspecified) yielded an EC50 of 15 µg/mL (≈ 76.1 µM).

≈ marks a conversion by molar mass, not a printed value.
